Laboratory results reported in publication PMC8605023 (Nature Communications, 2021).

Test system: G3BP1-YFP
Test: AP-MS of G3BP1-YFP with N wt or N 3A peptide competition
Set-up: species or system Human
Settings: for T-test Difference (Mutant vs WT inhibitor, log2): Peptide inhibitor competition, host protein co-purified, 4 replicates each; for Student's T-test Difference mut_wt: same quantity as T-test Difference column, unrounded

Substance	T-test Difference (Mutant vs WT inhibitor, log2)	Student's T-test Difference mut_wt
NUP188	9.72 log2	9.723
POM121	10.02 log2	10.0246
